Measured values from several laboratories, pooled; numbers as filed in NIAID ChemDB.

All rows: target-level tests; organism: Hepatitis C virus; target: Nonstructural protein 5B; endpoint: inhibition

Percent inhibition refers to the dose given; in toxicity tests it is the harm to the cells. Conditions beyond the fields shown may differ between rows.

structure,tested at,value
O=C(Nc1ccc2cn[nH]c2c1)c1cc(NCCCn2ccnc2)c(F)cc1F,1 µg/mL,52%
CSc1nc(Nc2ccc(N3CCOCC3)cc2)cc(N2CCN(CC(=O)NCCN3CCOCC3)CC2)n1,1 µg/mL,68%
Nc1ccn([C@H]2CO[C@@H](COP(=O)(O)OP(=O)(O)OP(=O)(O)O)O2)c(=O)n1,50 µM,85%
COc1nc(NCCN2CCOCC2)nc(Nc2ccc3cn[nH]c3c2)n1,1 µg/mL,33%
CSc1nc(Nc2ccc(N3CCOCC3)cc2)cc(N2CCN(CC(=O)N3CCC(N4CCCC4)CC3)CC2)n1,1 µg/mL,76%
O=C(Nc1ccc2[nH]ncc2c1)c1cc(NCCc2ccccn2)c(F)cc1F,0.1 µg/mL,0%
CSc1nc(Nc2ccc(N3CCOCC3)cc2)cc(N2CCN(CC(=O)NC3CC3)CC2)n1,1 µg/mL,68%
Nc1nc(N)c2ncn([C@@H]3CO[C@H](COP(=O)(O)OP(=O)(O)OP(=O)(O)O)O3)c2n1,50 µM,82%
COc1nc(NCCc2ccccn2)nc(Nc2ccc3[nH]ncc3c2)n1,10 µg/mL,55%
CSc1nc(Nc2ccc(N3CCOCC3)cc2)cc(N2CCN(CC(=O)NCCCl)CC2)n1,1 µg/mL,64%
CN(C)CCNc1cc(C(=O)Nc2ccc3cn[nH]c3c2)c(F)cc1F,1 µg/mL,28%
CSc1nc(Nc2ccc(N3CCOCC3)cc2)cc(N2CCN(CC(=O)N(CCN(C)C)Cc3ccccc3)CC2)n1,1 µg/mL,77%
CCN(CCO)c1cc(C(=O)Nc2ccc3cn[nH]c3c2)c(F)cc1F,0.1 µg/mL,0%
CN(C)C(=O)c1ccc(S(=O)(=O)Nc2ccc(N3CCOCC3)cc2)cc1,1 µg/mL,74%
Nc1ncn([C@H]2CO[C@@H](COP(=O)(O)OP(=O)(O)OP(=O)(O)O)O2)c(=O)n1,100 µM,8%
O=C(c1ccc(S(=O)(=O)Nc2ccc(N3CCOCC3)cc2)cc1)N(Cc1ccccn1)Cc1ccccn1,0.1 µg/mL,42%
CSc1nc(Nc2ccc(N3CCOCC3)cc2)cc(N2CCN(CC(=O)N3CCC(C(N)=O)CC3)CC2)n1,1 µg/mL,72%
COc1nc(Nc2ccc3[nH]ncc3c2)nc(N2CCC(C(N)=O)CC2)n1,0.1 µg/mL,37%
CSc1nc(Nc2ccc(N3CCOCC3)cc2)cc(N2CCN(CC(=O)N3CCN(c4ccc(O)cc4)CC3)CC2)n1,1 µg/mL,73%
COc1nc(NCCN2CCOCC2)nc(Nc2ccc3[nH]ncc3c2)n1,1 µg/mL,11%
CSc1nc(Nc2ccc(N3CCOCC3)cc2)cc(N2CCN(CC(=O)N(C)C)CC2)n1,1 µg/mL,70%
CN(C)CCN(Cc1ccccc1)C(=O)c1ccc(S(=O)(=O)Nc2ccc(N3CCOCC3)cc2)cc1,1 µg/mL,73%
COc1nc(NCCc2c[nH]c3ccccc23)nc(Nc2ccc3[nH]ncc3c2)n1,0.1 µg/mL,7%
Nc1ncn([C@@H]2CO[C@H](COP(=O)(O)OP(=O)(O)OP(=O)(O)O)O2)c(=O)n1,50 µM,12%
COC(=O)[C@@H]1CCCN1c1nc(Nc2ccc3cn[nH]c3c2)nc(OC)n1,0.1 µg/mL,0%
O=C(NCc1ccccn1)c1ccc(S(=O)(=O)Nc2ccc(N3CCOCC3)cc2)cc1,0.01 µg/mL,50%

The first 4 rows once more:

structure | tested at | value
O=C(Nc1ccc2cn[nH]c2c1)c1cc(NCCCn2ccnc2)c(F)cc1F | 1 µg/mL | 52%
CSc1nc(Nc2ccc(N3CCOCC3)cc2)cc(N2CCN(CC(=O)NCCN3CCOCC3)CC2)n1 | 1 µg/mL | 68%
Nc1ccn([C@H]2CO[C@@H](COP(=O)(O)OP(=O)(O)OP(=O)(O)O)O2)c(=O)n1 | 50 µM | 85%
COc1nc(NCCN2CCOCC2)nc(Nc2ccc3cn[nH]c3c2)n1 | 1 µg/mL | 33%